Pooled drug test results. Numbers come from NIAID ChemDB, via PubChem.

All rows: target-level tests; organism: HIV-1; target: Reverse transcriptase; method: nucleotide incorporation / radiometric; read-out: fold resistance

Lines come from different laboratories, so protocols vary. Fold resistance has wild type as its base. Blank or dashed fields: not listed here. Two numbers with a dash give a range or band.

{"SMILES": "Cc1cc(C2CC2)ccc1-n1c(Br)nnc1SCC(=O)Nc1ccc(S(N)(=O)=O)cc1Cl", "mutations": "RT-Y188L", "value": ">2"}
{"SMILES": "CCN1c2ncc(CCOc3ccc4cc(CC(=O)NN)ccc4c3)cc2C(=O)N(C)c2cccnc21", "mutations": "RT-V106A", "value": "1"}
{"SMILES": "NS(=O)(=O)c1ccc(NC(=O)CSc2nnc(Br)n2-c2c(Cl)cc(C3CCC3)c3ccccc23)c(Cl)c1", "mutations": "RT-Y188L", "value": ">1"}
{"SMILES": "CCN1c2ncc(CCOc3ccc(C(=O)O)c4ccccc34)cc2C(=O)N(C)c2ccc(F)nc21", "mutations": "RT-V106A", "value": ">10"}
{"SMILES": "CCN1c2ncc(CCOc3ccc(-c4cccc(C(C)C(=O)O)c4)cc3C)cc2C(=O)N(C)c2cccnc21", "mutations": "RT-K103N Y181C", "strain": "IIIB", "value": ">1"}
{"SMILES": "CC(C)c1ccc(-n2c(SCC(=O)Nc3ccc(S(N)(=O)=O)cc3Cl)nnc2C(F)F)c2ccccc12", "mutations": "RT-Y188L", "value": ">2"}
{"SMILES": "CCN1c2ncc(CCOc3ccc(-c4ncc[nH]4)cc3C)cc2C(=O)N(C)c2cccnc21", "mutations": "RT-K103N Y181C", "strain": "IIIB", "value": "1"}
{"SMILES": "CCN1c2ncc(CCOc3ccc(NC(=O)CCC(=O)O)c4ccccc34)cc2C(=O)N(C)c2cccnc21", "mutations": "RT-V106A", "value": ">10"}
{"SMILES": "CCc1ccc(-n2c(Br)nnc2SCC(=O)Nc2ccc(C(=O)O)cc2Br)c2ccccc12", "mutations": "RT-Y188L", "value": ">1"}
{"SMILES": "CCN1c2ncc(CCOc3ccc(NS(=O)(=O)C(F)(F)F)c4ccccc34)cc2C(=O)N(C)c2ccc(F)nc21", "mutations": "RT-K103N Y181C", "value": "1–10"}
{"SMILES": "CCN1c2ncc(CCOc3ccc(NC(=O)c4ccc(C(=O)O)cn4)cc3C)cc2C(=O)N(C)c2cccnc21", "mutations": "RT-K103N Y181C", "strain": "IIIB", "value": "1"}
{"SMILES": "CCN1c2ncc(CCOc3cccc4c3ccc[n+]4[O-])cc2C(=O)N(C)c2ccc(Cl)nc21", "mutations": "RT-Y181C", "value": "3.1"}
{"SMILES": "CCOC(=O)c1csc(-c2ccc(OCCc3cnc4c(c3)C(=O)N(C)c3cccnc3N4CC)c(C)c2)n1", "mutations": "RT-K103N Y181C", "strain": "IIIB", "value": ">2"}
{"SMILES": "COc1ccc2c(C)ccc(-n3c(Br)nnc3SCC(=O)Nc3ccc(S(N)(=O)=O)cc3Br)c2c1", "mutations": "RT-Y188L", "value": ">1"}
{"SMILES": "CCN1c2ncc(CCOc3ccc(-c4ccc(C(=O)O)cc4)cc3)cc2C(=O)N(C)c2ccc(Cl)nc21", "mutations": "RT-K103N Y181C", "strain": "IIIB", "value": "1"}
{"SMILES": "CCN1c2ncc(CCOc3ccc(/C=C(\\C)C(=O)O)c4ccccc34)cc2C(=O)N(C)c2ccc(C)nc21", "mutations": "RT-K103N Y181C", "value": "1–10"}
{"SMILES": "CCc1ccc(-n2c(Br)nnc2SCC(=O)Nc2ccc(C(=O)N3CCC(O)CC3)cc2Cl)c2ccccc12", "mutations": "RT-Y188L", "value": ">2"}
{"SMILES": "CCN1c2ncc(CCOc3ccc(C(=O)NS(C)(=O)=O)cc3C)cc2C(=O)N(C)c2cccnc21", "mutations": "RT-K103N Y181C", "strain": "IIIB", "value": ">2"}

2 of the rows above, restated:

SMILES	mutations	strain	value
CCN1c2ncc(CCOc3ccc(NC(=O)CCC(=O)O)c4ccccc34)cc2C(=O)N(C)c2cccnc21	RT-V106A	-	>10
CCN1c2ncc(CCOc3ccc(NS(=O)(=O)C(F)(F)F)c4ccccc34)cc2C(=O)N(C)c2ccc(F)nc21	RT-K103N Y181C	-	1–10